Measured data: PubChem BioAssay AID504761 (Drosophila RNAi Screening Center, 2011)

- Test: 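Fly genes whose silencing reduces dengue virus type 2 infection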 (primary screen)
- Cell system: D.Mel-2 cells from Drosophila
- Reagents: long dsRNA against Drosophila genes
- Conditions: infection with dengue virus type 2; dose and infection time not stated
- Detection: 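Cells stained for dengue envelope protein and imaged; percent of infected cells per well on duplicate plates, ranked by infection, with stained nuclei counted for cell number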
- Direction: infection score: higher = more virus-infected cells; cell count: higher = more cells in the well
- Active means: 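Low infection ranks in the two replicates (chance level up to 0.065) followed by a retest with a 1.5-fold or larger significant decrease, p below 0.05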
- Calls: active = confirmed: knock-down lowers infection; inactive = not picked or not confirmed
In all, the deposit lists about 22,000 reagents; shown is an unselected part of those that have a named target and a result. Of all reagents, 116 (0.52%) were called active. 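Calls depend on retest data that are not deposited; infection was ranked per plate without normalising between plates; the unit of the infection score is not given.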 Raw values vary from plate to plate and are shown uncorrected. Entries without a mark were called inactive. Names joined by + are all predicted targets of the reagent. Not all columns of the deposit are shown. No sequences are given here. Not given: the amount of reagent, the time to read-out.

Gene | amplicon | infection score, replicate 1 | infection score, replicate 2 | cell count, replicate 1
Acp36DE | DRSC01860 | 1.05 | 13.5 | 859
CG31145 | DRSC14206 | 6.03 | 10.4 | 6120
CG31145 | DRSC14671 | 14.4 | – | 5470
CG31145 | DRSC26758 | 3.44 | 2.25 | 6652
mRpL43 | DRSC04508 | 4.05 | 3.31 | 6446
mRpL43 | DRSC22571 | 11.7 | 17.5 | 5579
CG2930 | DRSC17730 | 5.63 | 2.25 | 6622
CG2930 | DRSC26303 | 2.66 | 1.58 | 6317
JMJD5 | DRSC08372 | 5.04 | 4.62 | 5675
JMJD5 | DRSC25820 | 4.59 | 2.54 | 5572
Pdp | DRSC17825 | 3.32 | 0.45 | 6678
Pdp | DRSC26725 | 3.6 | 7.43 | 6390
alpha-Est4 | DRSC12616 | 5.5 | 4.38 | 6491
alpha-Est4 | DRSC27280 | 13.3 | 8.38 | 6479
l(2)k14505 | DRSC03106 | 15.9 | 22.5 | 6369
CG11670 | DRSC14342 | 5.15 | 15.2 | 5374
CG4607 | DRSC18375 | 0.59 | 1.59 | 6639
SA2 | DRSC08385 | 3.72 | 4.95 | 6073
CG14384 | DRSC14842 | 3.92 | 8.4 | 6523
rdx | DRSC16580 | 0.73 | 6.41 | 6133
rdx | DRSC23120 | 0.74 | 1.22 | 6374
rdx | DRSC29820 | 15.1 | 9.79 | 6312
CG14229 | DRSC19585 | 4.93 | 3.7 | 5818
CG14229 | DRSC23149 | 1.21 | 5.15 | 6504
Obp99c | DRSC16262 | – | – | 382
CG13585 | DRSC04221 | 5.38 | 1.72 | 6694
CG9776 | DRSC12127 | 10.5 | 20 | 5809

5 entries from above in another layout:
{"Gene":"CG14384","amplicon":"DRSC14842","infection score, replicate 1":3.92,"infection score, replicate 2":8.4,"cell count, replicate 1":6523}
{"Gene":"rdx","amplicon":"DRSC16580","infection score, replicate 1":0.73,"infection score, replicate 2":6.41,"cell count, replicate 1":6133}
{"Gene":"rdx","amplicon":"DRSC23120","infection score, replicate 1":0.74,"infection score, replicate 2":1.22,"cell count, replicate 1":6374}
{"Gene":"rdx","amplicon":"DRSC29820","infection score, replicate 1":15.1,"infection score, replicate 2":9.79,"cell count, replicate 1":6312}
{"Gene":"CG14229","amplicon":"DRSC19585","infection score, replicate 1":4.93,"infection score, replicate 2":3.7,"cell count, replicate 1":5818}

Further entries:
Gene | amplicon | infection score, replicate 1 | infection score, replicate 2 | cell count, replicate 1
CG11695 | DRSC19416 | 24.6 | 10.6 | 4492
CG11695 | DRSC29760 | 10.8 | 6.82 | 6978
Lrrk | DRSC15816 | 3.92 | 19.1 | 5937
Lrrk | DRSC21971 | 6.51 | 0.52 | 6177
Lrrk | DRSC26140 | 1.67 | 4 | 6273
CG7900 | DRSC16336 | 5.11 | 10.7 | 6110
CG7900 | DRSC21343 | 16.3 | – | 5863
OS9 + Hf | DRSC03392 | 16.3 | 14.9 | 6158
hpo | DRSC06065 | 18.1 | 8.92 | 5823
Cds | DRSC10938 | 8.21 | 9.38 | 6336
gro | DRSC16962 | 5.07 | 1.36 | 6347
CG13029 | DRSC09909 | 4.7 | 3.57 | 5997
Atg8b | DRSC14501 | 9.39 | 1 | 3057
Atg8b | DRSC24428 | 9.45 | 16.1 | 5638
TrpRS | DRSC14097 | 2.36 | 5.77 | 6104
Cpr66D | DRSC23178 | 0.86 | 11.9 | 5693
Cpr66D | DRSC25925 | 2.45 | 8.93 | 6082
CG10939 | DRSC06019 | 11.3 | 9.39 | 6495
CG10939 | DRSC21734 | 3.35 | 15.5 | 5784
sky | DRSC02383 | 42.6 | 46 | 5426
sky | DRSC03214 | 28.8 | 14.8 | 6049
sky | DRSC03215 | 3.61 | 2.16 | 5043
Ppi1 | DRSC15421 | 1.8 | 15.5 | 6628
Pkn + Tsen15 | DRSC21969 | 3.98 | 0.82 | 5962
Pkn + Tsen15 | DRSC27376 | 25.6 | 28.5 | 6064
RfC3 | DRSC03411 | 13.7 | 3.27 | 4925
Rbf | DRSC18704 | 6.38 | 18.3 | 6525
Rbf | DRSC25213 | 7.87 | 5.86 | 6515
knon | DRSC07049 | 25.7 | 15 | 5968
CG15210 | DRSC19656 | – | 0.37 | 449
CG15210 | DRSC27768 | 4.46 | 2.1 | 6509
